Reference: paper PMC7997032, “Organic synthesis and anti-influenza A virus activity of cyclobakuchiols A, B, C, and D” (PLoS ONE, 2021)
Where “and” joins values, the source holds several entries; their conditions need not be identical. Equal values may be shown once. Read-outs that look alike come from different tables or passages of the source.

System: A/PR/8/34 virus
Format: cell-based
Settings: 12.5 μM, 24h WB, internal control, single experiment

## C=C[C@]1(C)CCC(C(=C)C)C(c2ccc(O)cc2)C1 (stereo in doubt) [cyclobakuchiol A]
Listed as cyclo A
  b-actin mean (western blot signal intensity, ImageJ): 156.336 and 133.85 and 133.178

## C=C[C@]1(C)CCC(C(=C)C)C(c2ccc(O)cc2)C1 (stereo in doubt) [cyclobakuchiol B]
  b-actin mean (western blot signal intensity, ImageJ): 145.043 and 116.425 and 132.668

## C=C[C@]1(C)CCC(C(C)(C)O)C(c2ccc(O)cc2)C1 (stereo in doubt) [cyclobakuchiol C]
Listed as cyclo C
  b-actin mean (western blot signal intensity, ImageJ): 131.086 and 106.034 and 136.563

## C=C[C@]1(C)CCC(C(C)(C)O)C(c2ccc(O)cc2)C1 (stereo in doubt) [cyclobakuchiol D]
Listed as cyclo D
  b-actin mean (western blot signal intensity, ImageJ): 122.172 and 135.965 and 130.558

## C=C[C@@](C)(/C=C/c1ccc(O)cc1)CCC=C(C)C [(+)-(S)-bakuchiol, reference compound]
  b-actin mean (western blot signal intensity, ImageJ): 156.622 and 135.848 and 135.596
